For this assay, the target named is Human immunodeficiency virus type 1 reverse transcriptase (Human immunodeficiency virus 1) (UniProt Q72547). The assay can be described thus: Selectivity ratio of Kpol to Kd for dGTP to Kpol to Kd for compound at HIV1 reverse transcriptase.

Take `[N-]=[N+]=N[C@@H]1C[C@@H](n2cnc3c(O)nc(N)nc32)O[C@H]1COP(=O)(O)OP(=O)(O)OP(=O)(O)O`: the Selectivity ratio is 236.

The values are drawn from ChEMBL document CHEMBL1828605, “Synthesis, antiviral activity, cytotoxicity and cellular pharmacology of l-3'-azido-2',3'-dideoxypurine nucleosides” (Eur J Med Chem, 2011).
